In patent US4740501A (priority 1985, dated 1988):

Test system: MMTV
Assay: MMTV production by MJY-alpha cells (radiolabel in purified virus)
Format: cell-based, mouse
Details: 15 uM for 48 hours, washed; labeled day 5, 24 hours

CCOC(=O)[C@H](CCSC)NC(=O)[C@H](Cc1cccc(N(CCCl)CCCl)c1)NC(=O)[C@@H](N)Cc1ccc(F)cc1.Cl [PTT.119, 3-(p-fluorophenyl)-L-alanyl-3-[m-bis(2-chloroethyl)aminophenyl]-L-alanyl-L-methionine ethyl ester hydrochloride]
MMTV production, % of control: 50-55%
